Laboratory results reported in ChEMBL document CHEMBL5303709, “ECBD screening data for assay EOS300041” (2022).

Target: Replicase polyprotein 1ab (Severe acute respiratory syndrome coronavirus 2) (UniProt P0DTD1)
Test: Inhibition of SARS-CoV-2 3CL-Pro proteolytic cleavage of a dual-labeled substrate by FRET.
Format: functional
Set-up: assay stage

O=C1C(Cl)=C(N2CCOCC2)C(=O)N1c1ccc(Cl)c(Cl)c1 gave an IC50 relative of 4.53 µM.
